Anti-infective test results gathered from many reports (values: NIAID ChemDB through PubChem).

All rows: whole-cell or culture tests; agent: Mycobacterium tuberculosis

An empty or dashed field is not shown.

smiles | strain or isolate | dose | read by | read-out | result
CO[C@H]1/C=C/O[C@@]2(C)Oc3c(C)c(O)c4c(O)c(c(/C=N/N=C/N5CCCCCC5)c(O)c4c3C2=O)NC(=O)/C(C)=C\C=C\[C@H](C)[C@H](O)[C@@H](C)[C@@H](O)[C@@H](C)[C@H](OC(C)=O)[C@@H]1C | H37Rv | - | - | MIC | 0.04 µg/mL
O=C1c2c(O)ccc(O)c2C(=O)c2c(NCCNCO)ccc(NCCNCO)c21 | - | - | - | MIC | 400 µM
CC1=NN(C(=O)c2ccc(Cl)cc2)C(=O)C1N=Nc1ccc(S(=O)(=O)Nc2ccccn2)cc1 | H37Rv | - | BACTEC | MIC | ≥12.8 µg/mL
CCOC(=O)c1c(-c2ccccc2)oc2cc(O)cc(CNC(C)C)c12 | mc(^2)7000 | - | resazurin / fluorescence | MIC | 9 µM
O=[N+]([O-])c1ccc2sc3nnc(SCc4ccccc4F)n3c2c1 | H37Rv | - | - | MIC | 10 µg/mL
O=C(NCCCN1c2ccccc2Sc2ccccc21)N1C(=O)/C(=C\c2cccc(Br)c2)SC1c1cccc(Br)c1 | H37Rv | 25 µg/mL | agar | inhibition | 30%
NC(=O)NC(=O)C1CCN(S(=O)(=O)c2ccccc2)CC1 | H37Rv | 12.5 µg/mL | BACTEC | inhibition | 0%
CCCCOc1ccc(NC(=S)Nc2ccc(OCCN(CC)CC)cc2)cc1 | H37RV #164 | - | - | MIC | 16.6 µg/mL
CCCCN(C)/C=N/N=C/c1c2c(O)c3c(O)c(C)c4c(c3c1O)C(=O)[C@@](C)(O/C=C/[C@H](OC)[C@@H](C)[C@@H](OC(C)=O)[C@H](C)[C@H](O)[C@H](C)[C@@H](O)[C@@H](C)/C=C/C=C(/C)C(=O)N2)O4 | H37Rv | - | - | MIC | 0.04 µg/mL
CC(=N\NC(=O)c1ccc([N+](=O)[O-])o1)/C(Cl)=N/Nc1ccc(S(=O)(=O)Nc2ncccn2)cc1 | RCMB 010126 | - | - | MIC | 15.63 µg/mL
c1ccc(-c2c3c(nc4ccccc24)CCC3)cc1 | H37Rv | - | resazurin | MIC99 | 3.25 µg/mL
O=c1cc(O)cc(NS(=O)(=O)c2nnc3sc4ccccc4n23)[nH]1 | H37Rv | - | - | MIC | 100 µg/mL
COc1cccc(C2SCC(=O)N2C(=O)NCCCN2c3ccccc3Sc3ccccc32)c1 | H37Rv | 25 µg/mL | agar | inhibition | 32%
CCn1cc(C(=O)NN=Cc2ccc([N+](=O)[O-])o2)c(=O)c2ccccc21 | H37Rv | - | resazurin | MIC | 6.25 µg/mL
Cc1ccc(C2SCC(=O)N2C(=O)NCCCN2c3ccccc3Sc3ccccc32)cc1 | H37Rv | 25 µg/mL | agar | inhibition | 29%
Clc1cn2cc(-c3ccc(Br)cc3)nc2s1 | H37Rv | 6.25 µg/mL | - | inhibition | 0%
COc1c(-c2ccccc2)oc2c(ccc3occc32)c1=O | H37Ra | - | - | MIC | >100 µg/mL
CC(/C=C/C(=O)c1sc(-n2nc(-c3ccccc3)cc2-c2ccccc2)nc1C)=C\c1ccccc1 | H37Rv | - | resazurin | MIC bound | >6.25 µg/mL
NNC(=O)c1ccncc1 | BCG #256 | - | - | MIC | <0.5 µg/mL
CCCCCCCCCC(O)CC(=O)CCc1ccc(O)c(OC)c1 | H37Rv | - | - | MIC | 50 µg/mL
COc1ccc(-c2cc(C(=O)O)c3cc4ccccc4cc3n2)cc1Br | H37Rv | - | BACTEC | MIC | 6.25 µg/mL
C[C@@H]([C@H](NC(=O)[C@H](CC1CCCCC1)NC(=O)N[C@@H](Cc1c[nH]c2ccccc12)C(=O)OCC(C)(C)C)C(=O)NC[C@H]1C[C@@H](O)[C@H](n2ccc(=O)[nH]c2=O)O1)N(C)C(=O)CN | H37Rv | - | resazurin / fluorescence | MIC50 | 0.003 µM
CCn1cc(C(=O)N/N=C/c2ccc(Br)s2)c(=O)c2cc(Cl)ccc21 | H37Rv (ATCC 27294) | - | resazurin | MIC | >100 µg/mL
Cn1c(=O)[nH]c2nncnc2c1=O | H37Rv | - | BACTEC | MIC | ≥12.8 µg/mL
COc1ccccc1-c1cn2ccsc2n1 | H37Rv | - | - | MIC | >6.25 µg/mL
CC(=N\NC(=O)c1ccc([N+](=O)[O-])o1)/C(Cl)=N/Nc1ccc(F)cc1 | RCMB 010126 | - | - | MIC | 31.25 µg/mL
COc1cc(Cc2cnc(N)nc2N)cc(OC)c1OC | Var. hominis | - | - | MIC | 250 µg/mL
NC(N)=NC(N)=Nc1ccc(Cl)c(Cl)c1 | H37Rv | - | BACTEC | MIC bound | >6.25 µg/mL
CCCCOc1ccc(NC(=S)Nc2ccc(N(C)C)cc2)cc1 | H37RV #301 | - | - | MIC | 3.9 µg/mL
Oc1ccc(Br)cc1-c1nc2cc(Cl)c(Cl)cc2nc1-c1cc(Br)ccc1O | H37Rv | - | BACTEC | MIC bound | <6.25 µg/mL
CC(=O)Nc1ccc(/C=N/NC(N)=S)cc1 | Aoyama B | - | - | MIC | 0.1 µg/mL
Cc1c2oc3c(C)ccc(C(=O)NCCN4CCOCC4)c3nc-2c(C(=O)NCCN2CCOCC2)c(N)c1=O | H37Rv | 12.5 µg/mL | BACTEC | inhibition | 15%
CCCCCCCCCCCCOC(=O)[C@H](Cc1c[nH]c2ccccc12)NC(=O)N[C@@H](CC1CCCCC1)C(=O)N[C@H](C(=O)NC[C@H]1C[C@@H](O)[C@H](n2ccc(=O)[nH]c2=O)O1)[C@H](C)N(C)C(=O)CN | H37Rv | - | resazurin / fluorescence | MIC50 | 0.2 µM
OCc1c(-c2ccccc2)oc2ccc(O)c(CN3CCC(N4CCCCC4)CC3)c12 | mc(^2)7000 | - | resazurin / fluorescence | MIC28 | 20 µM
COc1cccc(-c2cn3cc(Cl)sc3n2)c1 | H37Rv | 6.25 µg/mL | - | inhibition | 0%
NS(=O)(=O)c1nnc2sc3ccccc3n12 | H37Rv | - | - | MIC | 10 µg/mL
CO[C@H]1/C=C/O[C@@]2(C)Oc3c(C)c(O)c4c(O)c(c(/C=N/N=C/N5CCOCC5)c(O)c4c3C2=O)NC(=O)/C(C)=C\C=C\[C@H](C)[C@H](O)[C@@H](C)[C@@H](O)[C@@H](C)[C@H](OC(C)=O)[C@@H]1C | H37Rv | - | - | MIC | 0.02 µg/mL
CCn1cc(C(=O)N/N=C/c2ccco2)c(=O)c2cc(Cl)ccc21 | H37Rv (ATCC 27294) | - | resazurin | MIC | >100 µg/mL
NC(=O)c1cnccn1 | CA516 | - | - | MIC | 512 µg/mL
O=C(NCCCN1c2ccccc2Sc2ccccc21)N1C(=O)/C(=C\c2ccc(O)cc2)SC1c1ccc(O)cc1 | H37Rv | 25 µg/mL | agar | inhibition | 24%
CCCCCCCCCCCCOC(=O)[C@H](Cc1c[nH]c2ccccc12)NC(=O)N[C@@H](Cc1ccc2ccccc2c1)C(=O)N[C@H](C(=O)NC[C@H]1C[C@@H](O)[C@H](n2ccc(=O)[nH]c2=O)O1)[C@H](C)N(C)C(=O)CN | H37Rv | - | resazurin / fluorescence | MIC50 | 0.25 µM
Cc1c(N)nc(C(CC(N)=O)NCC(N)C(N)=O)nc1C(=O)NC(C(=O)NC(C)C(O)CC(=O)NC(C(=O)NC(OC1OC(C)C(N)C(O)C1O)C(O)c1nc(-c2nc(C(=O)NCCC[S+](C)C)cs2)cs1)C(C)O)C(OC1OC(CO)C(O)C(O)C1OC1OC(CO)C(O)C(OC(N)=O)C1O)c1cnc[nH]1.Cl.Cl.Cl.[Cl-] | TAC-R | - | - | MIC | 0.2 µg/mL
O=C(N/N=C(/CS(=O)(=O)c1ccccc1)c1ccc(Cl)cc1)c1ccc([N+](=O)[O-])o1 | RCMB 010126 | - | - | MIC | 15.63 µg/mL
c1ccc2c(-c3nc4ccccc4c4ccccc34)nccc2c1 | H37Rv | 12.5 µg/mL | BACTEC | inhibition | -55%
CCn1cc(C(=O)O)c(=O)c2cc(F)c(N3CCN(CC(=O)N4C(=O)c5cccnc5N(C5CC5)c5nccc(C)c54)CC3)cc21 | H37Rv (ATCC 27294) | - | BACTEC | EC50 | 76 µg/mL
O=S(=O)(Nc1nccs1)c1nnc2sc3ccccc3n12 | H37Rv | - | - | MIC | 50 µg/mL
O=C(/N=C/c1ccccc1Br)NCCCN1c2ccccc2Sc2ccccc21 | H37Rv | 50 µg/mL | agar | inhibition | 52%
CCN(CC)c1nc2c(s1)c1c(O)c3c(O)c(C)c4c(c32)C(=O)[C@@](C)(O/C=C/[C@H](OC)[C@@H](C)[C@@H](OC(C)=O)[C@H](C)[C@H](O)[C@H](C)[C@@H](O)[C@@H](C)/C=C/C=C(/C)C(=O)N1)O4 | 3181-4 | - | - | MBC | 0.5 µg/mL
N=C1OCCN1/N=C/c1ccc([N+](=O)[O-])o1 | H37Rv | - | resazurin | MIC bound | >6.25 µg/mL
O=Nc1c(-c2ccc(Cl)cc2)nc2sccn12 | H37Rv | 6.25 µg/mL | - | inhibition | 100%
COc1cccc(-c2oc3c(ccc4occc43)c(=O)c2OC)c1 | H37Ra | - | - | MIC | 200 µg/mL
CCn1cc(C(=O)N/N=C/c2ccncc2)c(=O)c2cc(Cl)ccc21 | H37Rv (ATCC 27294) | - | resazurin | MIC | >100 µg/mL
CC(C)=CCC1=C(OC2OC(CO)C(O)C(O)C2O)C(=O)c2ccccc2C1=O | H37Rv | 128 µg/mL | BACTEC | inhibition | 98%
C[C@@H]1CN(c2c(F)c(N)c3c(=O)c(C(=O)O)cn(C4CC4)c3c2F)C[C@H](C)N1 | H37Rv | - | - | MIC | 0.2 µg/mL
C[C@@H]([C@H](NC(=O)[C@H](CC1CCCCC1)NC(=O)N[C@@H](Cc1c[nH]c2ccccc12)C(=O)NCc1ccccc1)C(=O)NC[C@H]1C[C@@H](O)[C@H](n2ccc(=O)[nH]c2=O)O1)N(C)C(=O)CN | H37Rv | - | resazurin / fluorescence | MIC50 | 0.057 µM
CC(O)c1ccc2c(c1)C(O)C[C@H]1[C@](C)(CO)CCC[C@]21C | H37Rv | 12.5 µg/mL | BACTEC | inhibition | 0%
COc1cc2c(cc1-c1cc(=O)c3ccc4occc4c3o1)OCO2 | H37Ra | - | - | MIC | >100 µg/mL
Cc1ccccc1/C=N/C(=O)NCCCN1c2ccccc2Sc2ccccc21 | H37Rv | 25 µg/mL | agar | inhibition | 25%
O=C(c1ccncc1)n1nc(-c2ccccc2)c(N=Nc2nc3ccc([N+](=O)[O-])cc3s2)c1-c1ccccc1 | H37Rv | - | resazurin | MIC bound | <6.25 µg/mL
C[C@@H]([C@H](NC(=O)[C@H](CC1CCCCC1)NC(=O)N[C@@H](Cc1c[nH]c2ccccc12)C(=O)NCC(C)(C)C)C(=O)NC[C@H]1C[C@@H](O)[C@H](n2ccc(=O)[nH]c2=O)O1)N(C)C(=O)CN | H37Rv | - | resazurin / fluorescence | MIC99 | 0.333 µM
C=CN(O)C[C@@H](CCCC)C(=O)N[C@H](C(=O)N(C)C)C(C)(C)C | - | - | - | MIC90 | 0.2 µg/mL
O=Nc1c(-c2ccc(Cl)cc2)nc2sc(Cl)cn12 | H37Rv | - | - | MIC | >6.25 µg/mL
CC(C)C(N)C(=O)NC(Cc1ccc(O)cc1)C(=O)NC(C(=O)O)C(C)C | H37Rv | - | BACTEC | MIC bound | >12.5 µg/mL
CCOC(=O)c1c(-c2ccccc2)oc2ccc(O)c(CCN3CCCC(O)C3)c12 | mc(^2)7000 | - | resazurin / fluorescence | MIC | >20 µM
COC(=O)Nc1nc2ccc(C(C)(O)c3cccs3)cc2[nH]1 | - | 0.5 µM | BACTEC | inhibition | 0%
COc1ccc(C2SCC(=O)N2C(=O)NCCCN2c3ccccc3Sc3ccccc32)cc1 | H37Rv | 50 µg/mL | agar | inhibition | 50%
COc1ccc(Cc2cnc(N)nc2N)cc1Br | Var. hominis | - | - | MIC | 6 µg/mL
O=[n+]1c2ccc(Cl)cc2n([O-])c2ccc(Cl)cc21 | CS-R | - | - | MIC | 12.5 µg/mL
CCOC(=O)c1c(-c2ccc(O)cc2)oc2cc(O)cc(CN3CCCCC3)c12 | mc(^2)7000 | - | resazurin / fluorescence | MIC | 1 µM
Cn1c(=O)c2nc3c(nc2n(C)c1=O)c(=O)n(C)c(=O)n3C | H37Rv | 12.5 µg/mL | BACTEC | inhibition | 0%
CCN(/C=N/N=C/c1c2c(O)c3c(O)c(C)c4c(c3c1O)C(=O)[C@@](C)(O/C=C/[C@H](OC)[C@@H](C)[C@@H](OC(C)=O)[C@H](C)[C@H](O)[C@H](C)[C@@H](O)[C@@H](C)/C=C/C=C(/C)C(=O)N2)O4)CC | H37Rv | - | - | MIC | 0.02 µg/mL
Nc1c(S(=O)(=O)O)cc(Nc2ccc(S(=O)(=O)O)c(Nc3nc(Cl)nc(Cl)n3)c2)c2c1C(=O)c1ccccc1C2=O | H37Rv | - | BACTEC | MIC bound | >12.5 µg/mL
CCn1cc(C(=O)N/N=C/c2ccc(Cl)cc2)c(=O)c2ccccc21 | H37Rv (ATCC 27294) | - | resazurin | MIC | >100 µg/mL
Cc1ccc(NCCNCC(C)(C)O)c2c(=O)c3ccccc3sc12 | H37Rv | - | BACTEC | MIC bound | ≤12.5 µg/mL
COc1cc2oc(=O)cc(C[C@H](NC(=O)N[C@@H](Cc3c[nH]c4ccccc34)C(=O)OCc3ccccc3)C(=O)N[C@H](C(=O)NC[C@H]3C[C@@H](O)[C@H](n4ccc(=O)[nH]c4=O)O3)[C@H](C)N(C)C(=O)CN)c2cc1OC | H37Rv | - | resazurin / fluorescence | MIC50 | 0.1 µM

6 of the rows above, restated:

smiles	strain or isolate	dose	read by	read-out	result
COc1cccc(C2SCC(=O)N2C(=O)NCCCN2c3ccccc3Sc3ccccc32)c1	H37Rv	25 µg/mL	agar	inhibition	32%
c1ccc2c(-c3nc4ccccc4c4ccccc34)nccc2c1	H37Rv	12.5 µg/mL	BACTEC	inhibition	-55%
NNC(=O)c1ccncc1	BCG #256	-	-	MIC	<0.5 µg/mL
NC(=O)NC(=O)C1CCN(S(=O)(=O)c2ccccc2)CC1	H37Rv	12.5 µg/mL	BACTEC	inhibition	0%
CCn1cc(C(=O)N/N=C/c2ccncc2)c(=O)c2cc(Cl)ccc21	H37Rv (ATCC 27294)	-	resazurin	MIC	>100 µg/mL
Cc1c(N)nc(C(CC(N)=O)NCC(N)C(N)=O)nc1C(=O)NC(C(=O)NC(C)C(O)CC(=O)NC(C(=O)NC(OC1OC(C)C(N)C(O)C1O)C(O)c1nc(-c2nc(C(=O)NCCC[S+](C)C)cs2)cs1)C(C)O)C(OC1OC(CO)C(O)C(O)C1OC1OC(CO)C(O)C(OC(N)=O)C1O)c1cnc[nH]1.Cl.Cl.Cl.[Cl-]	TAC-R	-	-	MIC	0.2 µg/mL

A number after MIC or MFC names an inhibition level or a share of isolates. Neighbouring rows are from separate reports. MIC bound comes from a single tested concentration. Inhibition is in % at the dose shown (toxicity tests: loss of growth or viability). ECn is the concentration giving n% inhibition of infection, replication or growth.